The record followed here is PMC11808136, “Screening and identification of host signaling pathways for alleviating influenza-induced production of pro-inflammatory cytokines, IP-10, IL-8, and MCP-1, using a U937 cell-based influenza model” (Frontiers in Microbiology, 2025).

For series [1], the system named is IL-8 production in influenza virus-infected U937 cells (H1N1). Format: cell-based, Human.
Series [2] concerns IP-10 production in influenza virus-infected U937 cells (H1N1). Type of series: cell-based.
The subject of series [3] is MCP-1 production in influenza virus-infected U937 cells (H1N1). Type of series: cell-based.
For series [4], the system named is IL-8 production in influenza virus-infected U937 cells (H3N2). Type of series: cell-based, Human.
For series [5], the system named is IP-10 production in influenza virus-infected U937 cells (H3N2). Type of series: cell-based, Human.
Series [6] deals with MCP-1 production in influenza virus-infected U937 cells (H3N2). Format: cell-based, Human.
For series [7], the system named is IL-8 production in influenza virus-infected U937 cells (H7N8). Format: cell-based, Human.
Series [8] deals with IP-10 production in influenza virus-infected U937 cells (H7N8). Format: cell-based, Human.
In series [9] the test system is MCP-1 production in influenza virus-infected U937 cells (H7N8). Type of series: cell-based, Human.
Where [10] appears, read: H1N1, selectivity index CC50/EC50.
[11] abbreviates: secondary screen, Supplemental Table 1.
Setting [12] is: H3N2, selectivity index CC50/EC50.
[13] abbreviates: H7N8, selectivity index CC50/EC50.

Each structure is given as a SMILES string. “And” between values parts separate entries of the source, which are not always exact repeats. Equal entries are not always repeated. Where two headings read alike, the source gives them in different places. A value given as a limit tells only on which side of the number the result lay.

`Cc1cc(Nc2nc(N[C@@H](C)c3ncc(F)cn3)ncc2Cl)n[nH]1` [AZD1480]: the “SI IL-8” value is 13 in series [1] (setting [10]), 122 in series [1] (setting [11]), 14 in series [4] (setting [12]) and 466 in series [7] (setting [13]). Also, the “SI IP-10” value in series [2] (setting [10]) was 13; in series [2] (secondary screen, Supplemental Table 1, ratio CC50 / EC50) it was 135; in [5] (setting [12]), 5,823; in [8] (setting [13]), 1,747. The “SI MCP-1” value in series [3] (setting [10]) was 16; in [3] (setting [11]) it was 449; in series [6] (setting [12]) it was 209; in [9] (setting [13]) it was 140.
In the case of `Cc1ccc(Nc2ncc3c(n2)N(C)C(=O)N(c2cc(NC(=O)c4cccc(C(F)(F)F)c4)ccc2C)C3)cn1` [GNF-7], the “SI IL-8” value in series [1] (setting [11]) is reported as 6600; in series [4], more than 500; in [7], >1,000. In addition, the “SI IP-10” value was >20,000 in series [5] and >2,564 in series [8]. Moreover, the “SI MCP-1” value in series [6] is on record as >1,000; in series [9], more than 125.
On to `COc1cc(Nc2ncc(F)c(Nc3ccc4c(n3)NC(=O)C(C)(C)O4)n2)cc(OC)c1OC` [R406], for which the “SI IL-8” value in series [1] was more than 769; in series [1] (setting [11]), 122; in series [4] it was more than 145; in [7], >1,136. Moreover, the “SI MCP-1” value in series [3] was >416 and 370; in series [6], >1,617; in [9] it was >2,857. Moreover, the “SI IP-10” value was >19,607 in series [5] and >1,111 in series [8].
